## Screening data, single-dose tests

Data taken from ChEMBL document CHEMBL3988442, “University of Dundee, Small-Polar-MMV Screening Library” (2021).

The filed quantity is “Percent Effect” (%). How 0% and 100% were set is not recorded. Most values in the screen are low, and negative values occur. Many other results are left out here, so strong results are more common than in the screen.

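Growth of Mycobacterium tuberculosis over 3 days (7H9 medium with glucose and tyloxapol); the read-out is not stated. Compounds at 500 µM. Direction is inferred from retests: higher values go with more growth inhibition. Size under these conditions: about 18,000 compounds, about 1,400 of them at 50% or above in at least one test.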

Cc1csc(NC(=O)CNC(=O)c2cccs2)n1 read 62.14%.
COc1cc(Cl)ccc1CN1CCNC(=O)C1 read 30.41%.
NS(=O)(=O)c1ccccc1CNC(=O)C1CCCCO1 (stereo not shown) read 17.25%.
CN1CC(CN)OC1=O (stereo not shown) read 7.779%.
CN(C)[C@@H]1CN(C(=O)C2CCC2)C[C@H]1CO read -19.29%.
Cc1ccc(NC(=O)C2CC2)c(CN(C)C)c1 read 27.37%.
COC(C(=O)NCc1nc(C)c[nH]1)c1ccccc1 (stereo not shown) read 22.5%.
C[C@@H](CO)NC(=O)c1cc(N(C)C)ccn1 read -2.281%.
COc1cccc(C(=O)NCCC2=CCCN(C)C2)c1 read 1.241%.
COc1ccc(Br)c(C(=O)NCCCN)c1 read 23.45%.
Cc1ccc(NC(=O)C(C)N2CCCN(C)CC2)cc1 (stereo not shown) read 19.74%.
CCCNC(=O)c1ccc2ncn(C)c(=O)c2c1 read 0.543%.
Cc1cc(NC(=O)CCN2CCCCC2C(N)=O)no1 (stereo not shown) read 15.22%.
Cc1ccc(C(=O)CCN2CCOCC2C(N)=O)cc1 (stereo not shown) read -3.874%.
CCOCc1nnc(NCc2cccc(OC)n2)o1 read 28.72%.
NC[C@@H]1Cc2ccccc2CO1 read 2.586%.
COCCNCCNC(=O)c1ccc2c(c1)nnn2C read -2.651%.
CCOC(=O)N1CCC(N2CCN(CCO)CC2)CC1 read 3.766%.
CCC[C@H]1CN(C(=O)c2nn(C)c(C)c2Cl)C[C@@H]1N read 21%.
Cc1csc(CNC(=O)NC(C)Cn2cccn2)n1 (stereo not shown) read -1.653%.
O=C1CCCCC1c1ccoc1 (stereo not shown) read -21.83%.
N#Cc1ccc(OCCOCCn2cncn2)cc1 read 10.43%.
O=C(Cc1ccc(O)c(Cl)c1)NCC1CCOC1 (stereo not shown) read 12.11%.
COc1cccc(CN2CCC3(CC2)OCC(C)O3)c1 (stereo not shown) read 59.6%.
Cc1ccnc(N(C)CC2(CO)CCOCC2)n1 read 22.88%.
COCC(C)NC(=O)CSc1ccc(C(C)=O)cc1F (stereo not shown) read 6.522%.
NS(=O)(=O)CCNC(=O)CCc1ccc(Br)cc1F read 30.51%.
CN(C)S(=O)(=O)Nc1ccccn1 read 7.457%.
COc1ccc(CNC(=O)CCC2CCCO2)cn1 (stereo not shown) read 52.84%.